Results reported in US20160376333A1, “Polypeptides to inhibit epstein barr viral protein BHRF1 and B cell lymphoma family proteins” (University of Washington, published 2016).

Target: T1, Epstein-Barr virus BHRF1 a.a. 1-161 with C-terminal avi-6his tag (Epstein-Barr virus)
T1 construct: also called EBV BHRF1; BHRF1-biotin
T1 chain: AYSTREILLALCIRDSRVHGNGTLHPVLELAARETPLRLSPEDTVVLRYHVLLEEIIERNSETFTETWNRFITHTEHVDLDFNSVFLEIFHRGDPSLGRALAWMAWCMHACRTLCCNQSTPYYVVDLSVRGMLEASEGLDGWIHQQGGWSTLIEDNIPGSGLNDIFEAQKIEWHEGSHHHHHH
Assay: yeast surface display titration (apparent KD)

B1: BbpD04.3 (designed binder)
chain: ADWKKVLDKAKDIAENRVRELKQKLEEFYKEAMKLDLTQEMRRKLMLRWIAAMLMAIGDIFNAIRQAKQEADKLKKAGLVNSQQLDELKRRLEELKEEASRKARDYGREFQLKLEY
Binder B1 has a Kd of 0.54 nM.
